Results of unrelated studies side by side (data: NIAID ChemDB).

An empty or dashed field is not shown.

| compound | test | organism | strain | target | method | measure | tested at | result |
|---|---|---|---|---|---|---|---|---|
| O=C1OC(=O)c2cc(S(=O)(=O)O)ccc21 | culture | Mycobacterium tuberculosis | H37Rv |  |  | MIC |  | >100 µg/mL |
| OCc1ccccc1-c1cncc(N2CCN(c3ccc(F)cc3F)CC2)n1 | target | Cytomegalovirus |  | UL97 kinase |  | inhibition | 10 µM | >15% |
| CCC(=O)NS(=O)(=O)c1cc(N)ccc1S(=O)(=O)c1ccc(N)cc1 | culture | Mycobacterium tuberculosis | H37Rv |  |  | MIC |  | 25 µg/mL |
| Cc1ccc(-c2cncc(N3CCN(c4cccc(Cl)c4)CC3)n2)cc1 | target | Cytomegalovirus |  | UL97 kinase |  | inhibition | 10 µM | >15% |
| CC(=O)Nc1ccc(S(=O)(=O)Nc2nc3ccc(C)cc3s2)cc1 | culture | Mycobacterium tuberculosis | H37Rv |  |  | MIC |  | >100 µg/mL |
| Fc1cc(-c2cncc(N3CCN(c4ccccc4F)CC3)n2)ccc1-c1ccccc1 | target | Cytomegalovirus |  | UL97 kinase |  | inhibition | 10 µM | >15% |
| CCN(CC)CCNc1ccc(CO)c2oc3ccc(OS(=O)(=O)c4ccc(C)cc4)cc3c(=O)c12 | culture | Mycobacterium tuberculosis | H37Rv |  | BACTEC | MIC |  | 6.25 µg/mL |
| Nc1cc(O)c(C(=O)O)cc1C(=O)O | culture | Mycobacterium tuberculosis | H37Rv |  |  | MIC |  | 100 µg/mL |
| CCSC1OC(C(O)CO)C(O)C1NC(=O)C(F)(F)F | culture | Mycobacterium tuberculosis | H37Rv |  | BACTEC | inhibition | 12.5 µg/mL | 5% |
| COc1cccc(N2CCN(c3cncc(-c4ccoc4)n3)CC2)c1 | target | Cytomegalovirus |  | UL97 kinase |  | inhibition | 10 µM | >15% |
| COC(=O)C1C(OC(C)=O)C(C)C(O)C(C)(O)/C=C(\C)C2=C3C(=C(C)C(=O)c4c(O)c(c(C)c(OC(C)=O)c43)NC(=O)/C(C)=C/C=C\[C@](C)(O)C(O)[C@@H](C)C1O)OCO2 | culture | Mycobacterium tuberculosis | TAC-R |  |  | MIC |  | 0.2 µg/mL |
| COc1cccc(N2CCN(c3cncc(-c4ccc(C(N)=O)cc4)n3)CC2)c1 | target | Cytomegalovirus |  | UL97 kinase |  | inhibition | 1 µM | <50% |
| CC(=O)NS(=O)(=O)c1ccc(NC(=O)COC(=O)c2cccc3c(=O)c4ccccc4[nH]c23)cc1 | culture | Mycobacterium tuberculosis | H37Rv |  | resazurin | inhibition | 6.25 µg/mL | 6% |
| c1ccc2nc(N3CC3)ccc2c1 | culture | Mycobacterium tuberculosis | H37Rv |  |  | MIC |  | >100 µg/mL |
| NC(=O)c1ccc(-c2cncc(NCc3ccccc3)n2)cc1 | target | Cytomegalovirus |  | UL97 kinase |  | IC50 |  | <1 µM |
| CCOC(=O)C1=C(C(=O)c2ccccc2)C(c2ccc(Cl)cc2Cl)C(C(=O)c2ccccc2)=C(C(=O)OCC)N1 | culture | Mycobacterium tuberculosis | H37Rv |  | BACTEC | MIC bound |  | >12.5 µg/mL |
| O=C([O-])c1cc(N=Nc2ccc(-c3ccc(N=Nc4ccc5ccccc5c4O)cc3)cc2)ccc1O.[Na+] | culture | Mycobacterium tuberculosis | H37Rv |  |  | MIC |  | >100 µg/mL |
| O=C(Nc1ccc(C2=NCCN2)cc1)c1cncc(C(=O)Nc2ccc(C3=NCCN3)cc2)c1 | culture | Mycobacterium tuberculosis | H37Rv |  | BACTEC | inhibition | 128 µg/mL | 94% |
| NC(=S)C1CC=CCC1 | culture | Mycobacterium tuberculosis | H37Rv |  |  | MIC |  | >100 µg/mL |
| CCOC(=O)c1cc2cc(C)cc(C(=O)c3ccc([N+](=O)[O-])cc3)c2[nH]1 | culture | Mycobacterium tuberculosis | H37Rv |  | resazurin | MIC bound |  | >6.25 µg/mL |
| Fc1ccc(N2CCCCC2)c(NC(=S)c2ccncc2)c1 | host protein |  |  | EGFR (T790M L858R) | kinase activity | inhibition | 10 µM | 4% |
| CC(CO)CC[C@H](O)[C@](C)(O)[C@H]1CC[C@@]2(O)C3=CC(=O)[C@@H]4C[C@@H](O)[C@@H](O)C[C@]4(C)[C@H]3CC[C@]12C | culture | Mycobacterium tuberculosis | H37Rv |  | BACTEC | MIC bound |  | >12.5 µg/mL |
| COc1ccccc1N1CCN(c2cncc(-c3ccc(C(N)=O)cc3)n2)CC1 | target | Cytomegalovirus |  | UL97 kinase |  | IC50 |  | <1 µM |
| CCN(CC)C(=S)S | culture | Mycobacterium tuberculosis | H37Rv |  |  | MIC |  | >100 µg/mL |
| Cc1ccc(NCCN(C)C)c2c(=O)c3cc(O)ccc3sc12.I | culture | Mycobacterium tuberculosis | H37Rv |  | BACTEC | MIC |  | ≥12.8 µg/mL |
| COc1cc(CC(=O)O)cc(OC)c1 | culture | Mycobacterium tuberculosis | H37Rv |  |  | MIC |  | >100 µg/mL |
| COc1ccc(N2CCN(c3cncc(-c4cccs4)n3)CC2)cc1OC | target | Cytomegalovirus |  | UL97 kinase |  | inhibition | 1 µM | <50% |
| CCN(CC)CCNc1ccc2nc(C)n3c4ccc(OC)cc4c(=O)c1c23.Cl | culture | Mycobacterium tuberculosis | H37Rv |  |  | MIC |  | 12.5 µg/mL |
| c1ccc(CSc2ccccc2)cc1 | culture | Mycobacterium tuberculosis | H37Rv |  |  | MIC |  | >100 µg/mL |
| c1ccc(Oc2ccc(-c3cncc(N4CCN(c5ccccc5)CC4)n3)cc2)cc1 | target | Cytomegalovirus |  | UL97 kinase |  | IC50 |  | <100 µM |

Repeating the first 4 entries:

compound,test,organism,strain,target,method,measure,tested at,result
O=C1OC(=O)c2cc(S(=O)(=O)O)ccc21,culture,Mycobacterium tuberculosis,H37Rv,,,MIC,,>100 µg/mL
OCc1ccccc1-c1cncc(N2CCN(c3ccc(F)cc3F)CC2)n1,target,Cytomegalovirus,,UL97 kinase,,inhibition,10 µM,>15%
CCC(=O)NS(=O)(=O)c1cc(N)ccc1S(=O)(=O)c1ccc(N)cc1,culture,Mycobacterium tuberculosis,H37Rv,,,MIC,,25 µg/mL
Cc1ccc(-c2cncc(N3CCN(c4cccc(Cl)c4)CC3)n2)cc1,target,Cytomegalovirus,,UL97 kinase,,inhibition,10 µM,>15%

MIC bound: limit read from a one-dose screen. ICn is the concentration giving n% inhibition. Percent inhibition refers to the dose given; in toxicity tests it is the harm to the cells. Neighbouring rows are from separate reports.